The values below come from article PMC9005727, “ComFC mediates transport and handling of single-stranded DNA during natural transformation” (Nature Communications, 2022).

Construct, isoform or probe ends are uncertain for at least one entry. A negative result means that nothing was seen under these conditions.

For the data set, the target named is ComFC WT (His6-ComFC) (Helicobacter pylori 26695) (UniProt O26008). Kind of data set: EMSA. The conditions noted are these: EMSA: 10 mM Tris-HCl pH 7.5, 50 mM KCl, 1 mM DTT, 0.1 ug/ul BSA, 4 °C, 30 min; native 6% TBE-PAGE; recombinant protein; residues 1-191; label: 5'-Cy5 on XV2.

Consider “TGGGTGAACCTGCAGGTGGGCAAAGATGTCCTAGCAATGTAATCGTCAAGCTTTATGCCGTT (double strand) [XV2/cXV2 62-bp dsDNA]”, for which the binding result was “no binding”.
